Source: PubChem BioAssay AID1259414 (Drosophila RNAi Screening Center, 2018)

- Purpose: 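Fly genes that alter Wolbachia amount inside host cells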 (primary screen)
- Cell system: Drosophila JW18 cells infected with Wolbachia
- Reagents: long dsRNA against Drosophila genes, 0.25 µg dsRNA per well of a 384-well plate
- Duration: 5 days
- Challenge: cells persistently infected with Wolbachia before knock-down; no added drug
- Detection: 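Imaged fluorescence in situ signal for Wolbachia 23S rRNA per DAPI-counted host cell, given as a robust z-score within each plate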
- Reading the numbers: Wolbachia per cell robust z: higher = more Wolbachia per host cell than the plate typical
- Call rule: 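Active if absolute robust z reaches 1.5 in two or more of three replicates, leaving out multi- or no-target dsRNAs, genes unexpressed in JW18 and A1 wells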
The deposit covers about 24,000 reagents; this is a random part of those with a known target gene and a result. Of all reagents, about 1,210 (5%) are marked active. 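Inactive calls also include excluded dsRNAs with several or no targets, genes unexpressed in JW18, and well A1, regardless of score.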 Unmarked entries are inactive. Reagents against one gene are numbered here. Names joined by + are all predicted targets of the reagent.

Wolbachia per cell robust z, rep 1 | Wolbachia per cell robust z, rep 2 | Wolbachia per cell robust z, rep 3 | Target gene | dsRNA no.
-7.58 | 0.00208 | -1.91 | CG10657 | 1
-0.668 | -0.642 | -0.899 | CG10657 | 2
-4.91 | -1.31 | -0.211 | CG12716 | 1
-0.135 | -0.859 | -0.551 | CG12716 | 2
1.01 | -1.64 | 1.71 | sl | 1
0.476 | -0.0706 | 0.176 | sl | 2
0.338 | -0.213 | -0.0603 | Elp3 | 1
3.35 | -0.00923 | -0.67 | Rab7 | 1
-1.18 | 0.0225 | -0.716 | CG14570 | 1
0.879 | 0.0482 | -0.575 | CG14570 | 2
0.865 | 0.641 | 1.93 | lncRNA:CR31781 | 1
0.0671 | 1.16 | 0.503 | lncRNA:CR31781 | 2
0.557 | -5.93 | 0.893 | Su(Tpl) | 1
0.902 | 0.68 | 0.764 | Su(Tpl) | 2
0.916 | 0.322 | -0.958 | Cbl | 1
-2.19 | 1.12 | 0.643 | Cbl | 2
0.903 | 0.665 | 0.288 | Cbl | 3
-0.575 | -0.324 | -0.0538 | ssp3 | 1
-1.63 | 0.525 | -0.0433 | ssp3 | 2
-0.329 | -1.28 | -1.56 | ssp3 | 3
0.387 | -6.64 | 0.167 | bnb | 1
-0.663 | 1.62 | 1.01 | bnb | 2
-0.486 | -1.76 | -0.554 | Srp14 | 1
-1.15 | 0.912 | -0.274 | CG15406 | 1
0.775 | -1.55 | 0.249 | CG15406 | 2
-3.08 | -1.18 | -0.908 | CheB38a | 1
0.0301 | -0.154 | 0.604 | CheB38a | 2
0.692 | 0.799 | 0.343 | pinta | 1

Entries listed so far whose target name begins with S or s:
Wolbachia per cell robust z, rep 1 | Wolbachia per cell robust z, rep 2 | Wolbachia per cell robust z, rep 3 | Target gene | dsRNA no.
1.01 | -1.64 | 1.71 | sl | 1
0.476 | -0.0706 | 0.176 | sl | 2
0.557 | -5.93 | 0.893 | Su(Tpl) | 1
0.902 | 0.68 | 0.764 | Su(Tpl) | 2
-0.575 | -0.324 | -0.0538 | ssp3 | 1
-1.63 | 0.525 | -0.0433 | ssp3 | 2
-0.329 | -1.28 | -1.56 | ssp3 | 3
-0.486 | -1.76 | -0.554 | Srp14 | 1

Additional entries follow.
Wolbachia per cell robust z, rep 1 | Wolbachia per cell robust z, rep 2 | Wolbachia per cell robust z, rep 3 | Target gene | dsRNA no.
-3.97 (active) | -1.21 | -2.67 | CG4593 | 1
0.629 | 0.255 | 0.337 | CG4593 | 2
0.564 | -0.00158 | -1.05 | CG7130 | 1
-0.466 | -1.14 | -0.557 | gem | 1
0.562 | -1.2 | -1.36 | gem | 2
-0.19 | -0.631 | -0.289 | Zip42C.2 | 1
-0.289 | -0.729 | -0.677 | Zip42C.2 | 2
-0.841 | 0.909 | -0.632 | Zip42C.2 | 3
-0.779 | -0.262 | 0.179 | CG10413 | 1
0.202 | 0.655 | 0.535 | Elba2 | 1
-0.723 | 0.592 | -1.25 | Elba2 | 2
-2.24 | -0.489 | 0.569 | POLDIP2 | 1
-1.4 | -1.17 | -3.27 | CG14362 | 1
0.515 | 0.403 | 0.413 | CG14362 | 2
0.653 | -1.07 | 0.865 | rump | 1
0.594 | 1.02 | 0.937 | CG13921 | 1
0.314 | 0.983 | -0.396 | CG13921 | 2
-0.641 | -5.35 | 0.0768 | gny | 1
-0.178 | -0.705 | 0.504 | CG11145 | 1
-4.99 | 1.2 | 0.166 | alphaKap4 | 1
0.456 | 1.37 | 1.82 | CG14958 | 1
-0.701 (active) | 2.04 | 3.64 | Myb | 1
0.785 | -2.41 | 0.832 | tplus3a | 1
-0.227 | -0.385 | -0.125 | asRNA:CR43299 + CG8119 | 1
0.413 | -6.41 | 0.218 | CG2691 | 1
0.855 | -0.27 | 1.62 | Polr2I | 1
0.274 | 0.871 | 0.626 | lap | 1
1.04 | 0.0136 | 0.117 | lap | 2
-2.83 (active) | -3.93 | -0.00177 | CG8950 | 1
0.176 | 0.976 | -0.907 | Bgb | 1
0.635 | 0.622 | -0.0253 | Bgb | 2
-2.58 (active) | -0.0897 | -2.94 | Sirt2 | 1
0.0324 | 1.49 | 0.535 | Sirt2 | 2
-3.94 | -1.08 | 0.35 | Acbp5 | 1
0.65 | 0.178 | -2.04 | mei-41 | 1
0.958 | 0.545 | 0.717 | mei-41 | 2
0.0336 | 0.796 | 0.642 | CG12522 | 1
0.316 | -0.158 | -0.26 | CG12522 | 2
-0.2 | -2.07 | 0.0758 | Vha68-1 | 1
-0.726 | 0.406 | -0.666 | Vha68-1 | 2
